Results of unrelated studies side by side (data: NIAID ChemDB).

All rows: tests on isolated targets; agent: Hepatitis C virus

a–b is a range or a potency band.

SMILES,dose,measure,protein,value
CN(C)c1ccc(-c2nc3ccc(-c4nc5cc(C(=O)O)ccc5n4C4CCCCC4)cc3nc2-c2ccc(N(C)C)cc2)cc1,100 µM,inhibition,NS5B polymerase,104%
O=C(O)c1cc2nc(-c3ccc(-c4ccc(F)cc4F)cc3)c(C3CCCCC3)c(=O)n2[nH]1,,IC50,RNA-dependent RNA polymerase,1–10 µM
O=C(Nc1cscc1-c1nc(C(=O)O)c(O)c(=O)[nH]1)Nc1cccc(Cl)c1Cl,,IC50,HCV polymerase,<25 µM
CCN(C(=O)CCC(C)C)c1cc(-c2ccccc2)sc1C(=O)O,,IC50,NS3 ATPase,<5 µM
O=C(O)c1nc(-c2sccc2NC(=O)N2CCC(Cc3ccccc3)CC2)[nH]c(=O)c1O,,IC50,HCV polymerase,<25 µM
COc1ccccc1-c1cc(-c2ccc(Oc3ccccc3)cc2)nc2cc(C(=O)O)nn12,,IC50,RNA-dependent RNA polymerase,1–10 µM
O=C(Nc1ccccc1-c1nc(C(=O)O)c(O)c(=O)[nH]1)NC1CCCc2ccccc21,,IC50,HCV polymerase,<100 µM
O=C(O)c1cc2nc(-c3ccc(Cl)cc3)cc(-c3cccc(F)c3)n2n1,,IC50,RNA-dependent RNA polymerase,>10 µM
CC(C)C(=O)N(Cc1ccc(C(C)(C)C)cc1)c1cc(-c2ccccc2)sc1C(=O)O,,IC50,NS3 ATPase,5–20 µM
O=C(O)c1ccc2c(c1)nc(-c1ccc3nc(-c4ccccc4Br)c(-c4ccccc4)cc3c1)n2C1CCCCC1,100 µM,inhibition,NS5B polymerase,99.09%
O=C(NCc1ccc(Cl)s1)Nc1cscc1-c1nc(C(=O)O)c(O)c(=O)[nH]1,,IC50,HCV polymerase,<25 µM
Cc1ccc(C(=O)N(C)c2cc(-c3ccccc3)sc2C(=O)O)cc1,,IC50,NS3 ATPase,<5 µM
O=C(O)c1ccc2c(c1)nc(-c1ccc3nc(-c4ccccc4-c4ccc(Cl)cc4)ccc3c1)n2C1CCCCC1,33 µM,inhibition,NS5B polymerase,99.05%
O=C(O)c1sc(-c2ccccc2)cc1N(Cc1ccc(-c2ccc(F)c(Cl)c2)s1)C(=O)c1ccc(Cl)cc1Cl,,IC50,NS3 ATPase,<5 µM
O=C(O)c1ccc2c(c1)nc(-c1ccc3nc(-c4cc(OCC(=O)N5CCCC5)ccc4-c4ccc(Cl)cc4)ccc3c1)n2C1CCCCC1,33 µM,inhibition,NS5B polymerase,97.42%
O=C(O)c1sc(-c2ccc3c(c2)OCO3)cc1N(C1CCCC1)S(=O)(=O)c1ccc(Cl)cc1Cl,,IC50,NS3 ATPase,<5 µM
O=C(NCc1ccc(Cl)cc1Cl)Nc1cscc1-c1nc(C(=O)O)c(O)c(=O)[nH]1,,IC50,HCV polymerase,<25 µM
C=CCN(C(=O)c1ccc(C)cc1)c1cc(-c2ccc(/C=C/C(=O)O)cc2)sc1C(=O)O,,IC50,NS3 ATPase,<5 µM
O=C(O)c1cnn2c(C3CCCCC3)c(-c3ccc(F)c(F)c3)cnc12,,IC50,RNA-dependent RNA polymerase,1–10 µM
O=C(O)c1nc(-c2ccccc2NS(=O)(=O)c2c(Cl)sc(Cl)c2Br)[nH]c(=O)c1O,,IC50,HCV polymerase,<100 µM
Cc1ccc(C(=O)N(C)c2cc(-c3ccc([N+](=O)[O-])cc3)sc2C(=O)O)cc1,,IC50,NS3 ATPase,5–20 µM
O=C(O)c1nc(-c2ccccc2NC(=S)NCc2ccccc2)[nH]c(=O)c1O,,IC50,HCV polymerase,<100 µM
CCC(C)N(C(=O)c1ccc(Cl)cc1Cl)c1cc(-c2ccccc2)sc1C(=O)O,,IC50,NS3 ATPase,<5 µM
O=C(O)c1ccc2c(c1)nc(-c1ccc3nc(-c4cc(C(=O)N5CCCC5)ccc4-c4ccc([N+](=O)[O-])cc4)ccc3c1)n2C1CCCCC1,100 µM,inhibition,NS5B polymerase,101%
COc1cccc(COc2ccc(-c3nc4cc(C(=O)O)[nH]n4c(=O)c3C3CCCCC3)cc2)c1,,IC50,RNA-dependent RNA polymerase,1–10 µM
O=C(O)c1nc(-c2sccc2NC(=O)C(c2ccccc2)c2ccccc2)[nH]c(=O)c1O,,IC50,HCV polymerase,<25 µM

The first 3 rows once more:

SMILES,dose,measure,protein,value
CN(C)c1ccc(-c2nc3ccc(-c4nc5cc(C(=O)O)ccc5n4C4CCCCC4)cc3nc2-c2ccc(N(C)C)cc2)cc1,100 µM,inhibition,NS5B polymerase,104%
O=C(O)c1cc2nc(-c3ccc(-c4ccc(F)cc4F)cc3)c(C3CCCCC3)c(=O)n2[nH]1,,IC50,RNA-dependent RNA polymerase,1–10 µM
O=C(Nc1cscc1-c1nc(C(=O)O)c(O)c(=O)[nH]1)Nc1cccc(Cl)c1Cl,,IC50,HCV polymerase,<25 µM

ICn is the concentration giving n% inhibition. Percent inhibition refers to the dose given; in toxicity tests it is the harm to the cells. Neighbouring rows are from separate reports. Blank or dashed fields: not listed here.